Measured values from several laboratories, pooled; numbers as filed in NIAID ChemDB.

All rows: whole-cell or culture tests; agent: Mycobacterium avium intracellulare

Conditions beyond the fields shown may differ between rows. A number after MIC or MFC names an inhibition level or a share of isolates. ECn is the concentration giving n% inhibition of infection, replication or growth. Blank or dashed fields: not listed here.

compound | read by | strain or isolate | measure | value
CC1COc2c(N3CCN(C)CC3)c(F)cc3c(=O)c(C(=O)O)cn1c23 | - | 31 strains | MIC50 | 25 µg/mL
C/C=C(\C)C(=O)Oc1ccc([C@H]2O[C@@H]2C)cc1 | - | - | EC50 | 1.29 µg/mL
CCNC(=O)[C@@H](NC(=O)Cc1ccccc1)[C@@H]1N[C@@H](C(=O)NCCNC(=O)[C@@H]2N[C@@H]([C@H](NC(=O)Cc3ccccc3)C(=O)NCC)SC2(C)C)C(C)(C)S1 | - | CIPT 140310030 | MIC | 50 µg/mL
CO[C@H]1/C=C/O[C@@]2(C)Oc3c(C)c(O)c4c(O)c(c5c(c4c3C2=O)NC2(CCN(CC(C)C)CC2)N=5)=NC(=O)/C(C)=C\C=C\[C@H](C)[C@H](O)[C@@H](C)[C@@H](O)[C@@H](C)[C@H](OC(C)=O)[C@@H]1C | - | N-809 (HIV-) | MIC | 0.2 µg/mL
CCCCCCCS/C(N)=N/N=C/c1ccc2ccccc2n1 | - | CNCTC D38/92 | MIC | 32 µM
CCC(C)C(=O)Oc1ccc(OC)cc1C1OC1C | - | ATCC 19709 | MIC | 3.1 µg/mL
CO[C@H]1/C=C/O[C@@]2(C)Oc3c(C)c(O)c4c(=O)c(c5oc6cc(N7CCN(CC(C)C)CC7)cc(=O)c6nc5c4c3=C2O)NC(=O)/C(C)=C\C=C\[C@H](C)[C@H](O)[C@@H](C)[C@@H](O)[C@@H](C)[C@H](OC(C)=O)[C@@H]1C | - | N-551 (HIV-) | MIC | ≤0.0125 µg/mL
CCn1c(S)c(N=NC(N)=O)c2ccccc21 | - | CNCTC D39/93 | MIC | 100 µM
NC(=O)c1cc[n+](Cc2ccc(C[n+]3ccc(C(N)=O)cc3)o2)cc1.[Br-].[Br-] | resazurin | - | EC50 | >20 µg/mL
CC[C@H]1OC(=O)[C@H](C)[C@@H](O[C@H]2C[C@@](C)(OC)[C@@H](OC(C)=O)[C@H](C)O2)[C@H](C)[C@@H](O[C@@H]2O[C@H](C)C[C@H](N(C)C)[C@H]2O)C(C)(O)C[C@@H](C)/C(=N\OCCCC2CCCCC2)[C@H](C)[C@@H](O)[C@]1(C)O | - | 12 strains | MIC90 | 1.56 µg/mL
CCS/C(N)=N/N=C/c1ccccc1O | - | CNCTC D38/92 | MIC | 63 µM
CO[C@H]1/C=C/O[C@@]2(C)Oc3c(C)c(=O)c4c(O)c(c5oc6cc(N(C)C)ccc6nc5c4c3C2=O)NC(=O)/C(C)=C\C=C\[C@H](C)[C@H](O)[C@@H](C)[C@@H](O)[C@@H](C)[C@H](OC(C)=O)[C@@H]1C | - | Shibazaki | MIC | 1.25 µg/mL
CC1(C)S[C@@H]2[C@H](NC(=O)C(C(=O)O)c3ccccc3)C(=O)N2[C@H]1C(=O)O | - | CIPT 140310030 | MIC | >75 µg/mL
CN1C(NC(=O)c2cnccn2)=NS(=O)(=O)c2cc(Cl)ccc21 | - | ATCC 13950 | MIC | >16 µg/mL
CCS/C(N)=N/N=C/c1nc2ccccc2o1 | - | CNCT D39/93 | MIC | 125 µM
CC(C)N1C(NNC(=O)c2cnccn2)=NS(=O)(=O)c2ccccc21 | - | ATCC 13950 | MIC | >16 µg/mL
CC[C@H]1OC(=O)[C@H](C)[C@@H](O[C@H]2C[C@@](C)(OC)[C@@H](O)[C@H](C)O2)[C@H](C)[C@@H](O[C@@H]2O[C@H](C)C[C@H](N(C)C)[C@H]2O)[C@](C)(OC)C[C@@H](C)C(=O)[C@H](C)[C@@H](O)[C@]1(C)O | - | 17 strains | MIC90 | 12.5 µg/mL
CN[C@@H]1[C@H](O[C@H]2[C@H](O[C@H]3[C@H](O)[C@@H](O)[C@H](N=C(N)N)[C@@H](O)[C@@H]3N=C(N)N)O[C@@H](C)[C@]2(O)C=O)O[C@@H](CO)[C@H](O)[C@H]1O | - | N-897 (HIV-) | MIC | 8 µg/mL
NC[C@H]1O[C@H](O[C@H]2[C@H](O)[C@@H](O[C@H]3O[C@H](CO)[C@@H](O)[C@H](N)[C@H]3O)[C@H](N)C[C@@H]2N)[C@H](O)[C@@H](O)[C@@H]1O | - | CIPT 140310034 | MIC | 5 µg/mL
CO[C@H]1/C=C/O[C@@]2(C)Oc3c(C)c(O)c4c(O)c(c(/C=N/N5CCN(C6CCCC6)CC5)c(O)c4c3C2=O)NC(=O)/C(C)=C\C=C\[C@H](C)[C@H](O)[C@@H](C)[C@@H](O)[C@@H](C)[C@H](OC(C)=O)[C@@H]1C | - | 17 strains | MIC90 | 25 µg/mL
O/N=C/c1cc[n+](Cc2ccc(C[n+]3ccc(/C=N/O)cc3)s2)cc1.[Cl-].[Cl-] | resazurin | - | EC50 | >20 µg/mL
CCN1C(NNC(=O)c2cnccn2)=NS(=O)(=O)c2ccccc21 | - | ATCC 13950 | MIC | 8 µg/mL
CN1C(=S)C(=O)c2ccccc21 | - | CNCTC D38/92 | MIC | 32 µM
CO[C@H]1/C=C/O[C@@]2(C)Oc3c(C)c(=O)c4c(O)c(c5oc6cc(N7CCCCC7)ccc6nc5c4c3C2=O)NC(=O)/C(C)=C\C=C\[C@H](C)[C@H](O)[C@@H](C)[C@@H](O)[C@@H](C)[C@H](OC(C)=O)[C@@H]1C | - | Shibazaki | MIC | 0.63 µg/mL
Cc1cc(C[n+]2cccc(C=NO)c2)on1.[Br-] | resazurin | - | EC50 | >20 µg/mL
CO[C@H]1/C=C/O[C@@]2(C)Oc3c(C)c(O)c4c(O)c(c(/C=N/N5CCN(C6CCCC6)CC5)c(O)c4c3C2=O)NC(=O)/C(C)=C\C=C\[C@H](C)[C@H](O)[C@@H](C)[C@@H](O)[C@@H](C)[C@H](OC(C)=O)[C@@H]1C | - | SKV | MIC | 0.25 µg/mL
CCn1c(S)c(N=NC(N)=[NH2+])c2ccccc21 | - | CNCTC D38/92 | MIC | 250 µM
CCN(CC)c1ccc2nc3c(oc2c1)c1c(O)c2c(=O)c(C)c4c(c23)C(=O)[C@@](C)(O/C=C/[C@H](OC)[C@@H](C)[C@@H](OC(C)=O)[C@H](C)[C@H](O)[C@H](C)[C@@H](O)[C@@H](C)/C=C/C=C(/C)C(=O)N1)O4 | - | Shibazaki | MIC | 1.25 µg/mL
O/N=C/c1cccc[n+]1Cc1ccc(C[n+]2ccccc2/C=N/O)s1.[Cl-].[Cl-] | resazurin | - | EC50 | >20 µg/mL
O=C1C(=S)N(Cc2ccccc2)c2ccccc21 | - | CNCTC D39/93 | MIC | 125 µM
CN1C(NC(=O)c2ccc(Cl)nc2)=NS(=O)(=O)c2cc(Cl)ccc21 | - | ATCC 13950 | MIC | >16 µg/mL
CCS/C(N)=N/N=C/c1ccc2cc(Cl)ccc2n1 | - | CNCT D39/93 | MIC | 32 µM
C=C(CCC=C(C)C)[C@@H]1CC[C@@]2(C)O[C@H]2C1 | - | ATCC 19709 | EC50 | 10 µg/mL
C[C@H]1COc2c(N3CCN(C)CC3)c(F)cc3c(=O)c(C(=O)O)cn1c23 | - | 17 strains | MIC90 | 25 µg/mL
CCS/C(N)=N/N=C/c1nc2ccccc2n1C | - | CNCT D39/93 | MIC | >1000 µM
O/N=C/c1ccc[n+](Cc2ccc(C[n+]3cccc(/C=N/O)c3)s2)c1.[Cl-].[Cl-] | resazurin | - | EC50 | >20 µg/mL
C[C@@H]1CN(c2c(F)c(N)c3c(=O)c(C(=O)O)cn(C4CC4)c3c2F)C[C@H](C)N1 | - | 17 strains | MIC90 | 6.25 µg/mL
CC(=O)NC[C@H]1CN(c2ccc(N3CCN(c4ccc([N+](=O)[O-])s4)CC3)c(F)c2)C(=O)O1 | - | ATCC35761 | MIC | <0.12 µg/mL
CCS/C(N)=N/N=C/c1ccc2ccccc2n1 | - | CNCTC D38/92 | MIC | >1000 µM
Clc1ccc2c(c1)nc1cc(Nc3ccccc3)c(=NC3CCCCC3)cc-1n2-c1ccccc1 | - | 99241 | MIC | 2 µg/mL

Repeating the final 4 entries:

compound | read by | strain or isolate | measure | value
C[C@@H]1CN(c2c(F)c(N)c3c(=O)c(C(=O)O)cn(C4CC4)c3c2F)C[C@H](C)N1 | - | 17 strains | MIC90 | 6.25 µg/mL
CC(=O)NC[C@H]1CN(c2ccc(N3CCN(c4ccc([N+](=O)[O-])s4)CC3)c(F)c2)C(=O)O1 | - | ATCC35761 | MIC | <0.12 µg/mL
CCS/C(N)=N/N=C/c1ccc2ccccc2n1 | - | CNCTC D38/92 | MIC | >1000 µM
Clc1ccc2c(c1)nc1cc(Nc3ccccc3)c(=NC3CCCCC3)cc-1n2-c1ccccc1 | - | 99241 | MIC | 2 µg/mL